Assay results taken from patent USRE42152E1, “Aromatic-linked polyamine macrocyclic compounds with anti-HIV activity” (Genzyme Corporation, priority 1992, dated 2011).

What was measured:
HIV-2 (LAV-2 ROD) = assay: MTT anti-viral screen, MT-4 cells challenged with HIV-2; assay type: cell-based; conditions: Selectivity Index, ratio of CC50 to IC50
HIV-1 (HTLV-IIIB) = assay type: cell-based; conditions: Selectivity Index, ratio of CC50 to IC50

Compound	SI HIV-2 (ROD) (HIV-2 (LAV-2 ROD))	SI HIV-1 (IIIB) (HIV-1 (HTLV-IIIB))
1,1′-[1,4-Phenylene-bis-(methylene)]-bis-1,4,8,11-tetraazacyclotetradecane copper diacetate hexahydrate [Compound G]	>7.4 × 10^3	>1.1 × 10^4
1,1′-[1,4-Phenylene-bis-(methylene)]-bis-1,4,8,11-tetraazacyclotetradecane zinc dichloride monohydrate [Compound F]	>1 × 10^5	>7.6 × 10^4
c1cc(CN2CCCNCCNCCCNCC2)cc(CN2CCCNCCNCCCNCC2)c1 [A, 1,1′-[1,3-phenylenebis(methylene)]bis-1,4,8,11-tetraazacyclotetradecane]	>5 × 10^4	>1.5 × 10^4
c1cc(CN2CCCNCCNCCCNCC2)ccc1CN1CCCNCCNCCCNCC1 [Compound B, 1,1′-[1,4-phenylenebis(methylene)]bis-1,4,8,11-tetraazacyclotetradecane]	>5 × 10^4	>8.3 × 10^4
O=[N+]([O-])c1cc(CN2CCCNCCNCCCNCC2)cc(CN2CCCNCCNCCCNCC2)c1 [Compound C, 1,1′-[5-nitro-1,3-phenylenebis-(methylene)]-bis-1,4,8,11-tetraazacyclotetradecane]	756	1100
Br.Br.Br.Br.Br.Br.Br.Br.O.O.O.O.c1cc(CN2CCCNCCNCCCNCC2)cc(-c2cccc(CN3CCCNCCNCCCNCC3)c2)c1 [Compound J, 1,1′-[3,3′-Biphenylene-bis-(methylene)]-bis-1,4,8,11-tetraazacyclotetradecane octahydrobromide tetrahydrate]	>900	>1250
Br.Br.Br.Br.Br.Br.Br.Br.Br.Br.O.O.O.O.O.c1cc(CN2CCCNCCNCCCNCC2)cc(-c2cc(CN3CCCNCCNCCCNCC3)ccn2)n1 [Compound K, 1,1′-[4,4′-(2,2′-Bipyridine)-bis-(methyl)]-bis-1,4,8,11-tetraazacyclotetradecane decahydrobromide pentahydrate]	334	300
Br.Br.Br.Br.Br.Br.Br.Br.Br.Br.O.O.O.c1cc2ccc3ccc(CN4CCCNCCNCCCNCC4)nc3c2nc1CN1CCCNCCNCCCNCC1 [Compound L, 1,1′-[2,9-(1,10-Phenanthroline)-bis-(methylene)]-bis-1,4,8,11-tetraazacyclotetradecane decahydrobromide trihydrate]	>625	>690
Br.Br.Br.Br.Br.Br.Br.Br.O.O.c1cc(CN2CCCNCCNCCNCCC2)ccc1CN1CCCNCCNCCNCCC1 [Compound M, 11,11′-[1,4-Phenylene-bis-(methylene)]-bis-1,4,7,11-tetraazacyclotetradecane octahydrobromide dihydrate]	>7.1 × 10^3	>1.6 × 10^4
Br.Br.Br.Br.Br.Br.Br.Br.O.O.O.O.O.O.c1cc(CN2CCCNCCNCCCNCC2)ccc1CN1CCCNCCNCCNCCC1 [Compound N, 1,11′-[1,4-Phenylene-bis-(methylene)]-1,4,8,11-tetraazacyclotetradecane-1,4,7,11-tetraazacydotetradecane octahydrobromide hexahydrate]	>7.1 × 10^3	>5 × 10^4
Br.Br.Br.Br.Br.Br.Br.Br.O.O.O.O.c1cc(CN2CCCNCCNCCCNCC2)nc(CN2CCCNCCNCCCNCC2)c1 [Compound O, 1,1′-[2,6-Pyridinebis-(methylene)]-bis-1,4,8,11-tetraazacyclotetradecane octahydrobromide tetrahydrate]	>6.2 × 10^3	>1.6 × 10^4
Br.Br.Br.Br.Br.Br.Br.Br.Br.O.O.c1ncc(CN2CCCNCCNCCCNCC2)cc1CN1CCCNCCNCCCNCC1 [Compound P, 1,1′[3,5-Pyridinebis-(methylene)]-bis-1,4,8,11-tetraazacyclotetradecane nonahydrobromide dihydrate]	>5.5 × 10^3	>1.2 × 10^4
Br.Br.Br.Br.Br.Br.c1cc(CN2CCNCCNCCNCC2)cc(CN2CCNCCNCCNCC2)c1 [Compound Q, 1,1′-[1,3-Phenylenebis-(methylene)]-bis-1,4,7,10-tetraazacyclododecane hexahydrobromide]	38	271
Br.Br.Br.Br.Br.Br.c1cc(CN2CCNCCNCCNCC2)ccc1CN1CCNCCNCCNCC1 [Compound R, 1,1′-[1,4-Phenylenebis-(methylene)]-bis-1,4,7,10-tetraazacyclododecane hexahydrobromide]	23	170
Br.Br.Br.Br.Br.Br.Br.Br.c1cc(CN2CCCNCCNCCCNCC2)sc1CN1CCCNCCNCCCNCC1 [Compound T, 1,1′-[2,5-Thophenebis-(methylene)]-bis-1,4,8,11-tetraazacyclotetradecane octahydrobromide]	>2.5 × 10^4	>5.0 × 10^4
c1ccc2c(CN3CCCNCCNCCCNCC3)ccc(CN3CCCNCCNCCCNCC3)c2c1 [E, 1,1′-[1,4-naphthylenebis(methylene)]bis-1,4,8,11-tetraazacyclotetradecane]	1420	1014
Cc1cc(CN2CCCNCCNCCCNCC2)c(C)cc1CN1CCCNCCNCCCNCC1 [W, 1,1′-[2,5-dimethyl-1,4-phenylenebis-(methylene)]-bis-1,4,8,11-tetraazacyclotetradecane]	>1.9 × 10^5	>3.2 × 10^4
Clc1cc(CN2CCCNCCNCCCNCC2)c(Cl)cc1CN1CCCNCCNCCCNCC1 [X, 1,1′-[2,5-dichloro-1,4-phenylenebis-(methylene)]-bis-1,4,8,11-tetraazacyclotetradecane]	2.4 × 10^4	5461
Brc1cc(CN2CCCNCCNCCCNCC2)ccc1CN1CCCNCCNCCCNCC1 [Y, 1,1′-[2-bromo-1,4-phenylenebis-(methylene)]-bis-1,4,8,11-tetraazacyclotetradecane]	>5.7 × 10^4	>3.2 × 10^4
c1ccc(-c2cc(CN3CCCNCCNCCCNCC3)cc(CN3CCCNCCNCCCNCC3)n2)cc1 [Z, 1,1′-[6-phenyl-2,4-pyridinebis-(methylene)]-bis-1,4,8,11-tetraazacyclotetradecane]	1.0 × 10^4	5112
